Compound potency records, mixed from different reports. Data source: NIAID ChemDB in PubChem.

Shared fields: whole-cell or culture tests; species: Adenovirus; measure: EC50

Rows are shuffled and stem from different studies. ECn is the concentration giving n% inhibition of infection, replication or growth. a–b is a range or a potency band. An empty or dashed field is not shown.

{"SMILES": "Cc1ccc(S(=O)(=O)O)cc1.N/C(=N\\N=C\\c1cc(Br)cc(Br)c1O)NO", "strain or isolate": "ATCC (TYPE 8)", "method": "plaque count", "cell line": "A549", "result": "4.2 µM"}
{"SMILES": "CCN(CC)c1noc(-c2ccc(O)cc2O)c1Cc1c(N(CC)CC)noc1-c1ccc(OC)cc1O", "strain or isolate": "ATCC VR10", "method": "plaque count", "cell line": "VERO", "result": ">3.5 µM"}
{"SMILES": "N#Cc1c(-c2ccccc2)s[nH]c1=S", "strain or isolate": "TYPE 2", "method": "plaque count", "cell line": "HEP-2", "result": ">60 µM"}
{"SMILES": "Nc1ccn([C@H]2CC[C@@H](CO)O2)c(=O)n1", "strain or isolate": "TYPE 4", "cell line": "HEP-2", "result": "4.29 µg/mL"}
{"SMILES": "Nc1nc2c(ncn2COCCO)c(=O)[nH]1", "strain or isolate": "TYPES 1-8", "method": "cytopathic effect", "cell line": "HEL", "result": ">125 µg/mL"}
{"SMILES": "CC(=O)N[C@H]1C[C@@H](n2cnc3c(N)ncnc32)[C@H](O)[C@@H]1O", "strain or isolate": "TYPE 1", "cell line": "HFF", "result": ">100 µg/mL"}
{"SMILES": "CCOc1ccc(-c2onc(N(CC)CC)c2Cc2c(N(CC)CC)noc2-c2ccc(O)cc2O)c(O)c1", "strain or isolate": "ATCC VR10", "method": "plaque count", "cell line": "VERO", "result": ">17 µM"}
{"SMILES": "NS(=O)c1ncnc2c1ncn2[C@@H]1O[C@H](CO)[C@@H](O)[C@@H]1O", "strain or isolate": "TYPE 2", "method": "cytopathic effect", "result": ">320 µM"}
{"SMILES": "NC(N)=Nc1cccc(C(=O)NCC(=O)NC(CC(=O)O)c2cccnc2)c1", "strain or isolate": "TYPE 2", "cell line": "HeLa", "result": "<100 µM"}
{"SMILES": "CCOc1ccc(-c2cc(N(CC)CC)no2)c(O)c1", "strain or isolate": "ATCC VR10", "method": "plaque count", "cell line": "VERO", "result": ">362 µM"}
{"SMILES": "COc1cc(OC)c(/C=N/N=C(/N)NO)c(OC)c1.Cc1ccc(S(=O)(=O)O)cc1", "strain or isolate": "ATCC VR18 (TYPE 17)", "method": "plaque count", "cell line": "VERO", "result": ">50 µM"}
{"SMILES": "NC(N)=Nc1cccc(C(=O)NCC(=O)NC(CC(=O)O)c2cc(Cl)cc(Cl)c2)c1", "strain or isolate": "TYPE 2", "cell line": "HUMAN 293", "result": "100 µM"}
{"SMILES": "CC(C)CS[C@H]1C[C@@H](n2cnc3c(N)ncnc32)[C@H](O)[C@@H]1O", "strain or isolate": "TYPE 1", "method": "cytopathic effect", "cell line": "A549", "result": ">100 µg/mL"}
{"SMILES": "CSc1nsc(SC)c1C#N", "strain or isolate": "TYPE 2", "method": "plaque count", "cell line": "HEP-2", "result": ">12 µM"}
{"SMILES": "Nc1ncnc2c1ncn2C[C@@H](CO)OCP(=O)(O)O", "strain or isolate": "TYPES 1-8", "method": "cytopathic effect", "cell line": "HEL", "result": "0.6–2.5 µg/mL"}
{"SMILES": "CCN(CC)c1cc(-c2ccc(OC)cc2OC)on1", "strain or isolate": "ATCC VR10", "method": "plaque count", "cell line": "VERO", "result": ">362 µM"}
{"SMILES": "CSc1nsc(-c2ccc(C)cc2)c1C#N", "strain or isolate": "TYPE 2", "method": "plaque count", "cell line": "HEP-2", "result": ">18 µM"}
{"SMILES": "NSc1ncnc2c1ncn2[C@H]1C[C@H](O)[C@@H](CO)O1", "strain or isolate": "TYPE 2", "method": "cytopathic effect", "result": ">320 µM"}
{"SMILES": "C#C[C@H](CC(=O)O)NC(=O)CNC(=O)c1cccc(N=C(N)N)c1", "strain or isolate": "TYPE 2", "cell line": "HeLa", "result": ">100 µM"}
{"SMILES": "COc1cc(OC)c(OC)cc1/C=N/N=C(/N)NO.Cc1ccc(S(=O)(=O)O)cc1", "strain or isolate": "ATCC VR18 (TYPE 17)", "method": "plaque count", "cell line": "VERO", "result": ">50 µM"}
{"SMILES": "CSc1nsc(-c2c(Cl)cccc2Cl)c1C#N", "strain or isolate": "TYPE 2", "method": "plaque count", "cell line": "HEP-2", "result": ">5 µM"}
{"SMILES": "CN(C)c1cc(-c2ccc(O)cc2O)on1", "strain or isolate": "ATCC VR10", "method": "plaque count", "cell line": "VERO", "result": ">227 µM"}
{"SMILES": "O=C(O)CC(NC(=O)CNC(=O)c1cccc(NC2=NCC(O)CN2)c1)c1cc(Cl)cc(Cl)c1", "strain or isolate": "TYPE 2", "cell line": "HUMAN 293/beta5", "result": "100 µM"}
{"SMILES": "Cc1nsc(C)c1C#N", "strain or isolate": "TYPE 2", "method": "plaque count", "cell line": "HEP-2", "result": ">1000 µM"}
{"SMILES": "NSc1ncnc2c1ncn2[C@@H]1O[C@H](CO)[C@@H](O)[C@@H]1O", "strain or isolate": "TYPE 2", "method": "cytopathic effect", "result": ">320 µM"}
{"SMILES": "CSc1nsc(-c2ccc3ccccc3c2)c1C#N", "strain or isolate": "TYPE 2", "method": "plaque count", "cell line": "HEP-2", "result": ">20 µM"}
{"SMILES": "CCN(CC)c1cc(-c2ccc(OC)cc2O)on1", "strain or isolate": "ATCC VR10", "method": "plaque count", "cell line": "VERO", "result": ">381 µM"}
{"SMILES": "NC(=O)Nc1cccc(C(=O)NCC(=O)NC(CC(=O)O)c2cccnc2)c1", "strain or isolate": "TYPE 2", "cell line": "HeLa", "result": ">100 µM"}

For reference, 2 entries again:

SMILES	strain or isolate	method	cell line	result
NSc1ncnc2c1ncn2[C@H]1C[C@H](O)[C@@H](CO)O1	TYPE 2	cytopathic effect	-	>320 µM
CC(C)CS[C@H]1C[C@@H](n2cnc3c(N)ncnc32)[C@H](O)[C@@H]1O	TYPE 1	cytopathic effect	A549	>100 µg/mL